A mixed list of measured activities; the numbers were collected in NIAID ChemDB.

Shared fields: growth or infection tests; species: Mycobacterium avium

MIC50, MIC90 and the like: level of inhibition, or share of isolates inhibited. Conditions beyond the fields shown may differ between rows. Inhibition is in % at the dose shown (toxicity tests: loss of growth or viability). Blank or dashed fields: not listed here. ECn: concentration that inhibits the pathogen or its effect by n%.

compound | strain or isolate | method | dose | mutations | measure | setting | value
N/C(=N\NC(CC(=O)c1ccc(Cl)cc1)c1cccnc1)c1ccccn1 | 17 strains | - | - | - | MIC50 | - | 32 µg/mL
O=C(NNC(=O)c1ccncc1)Nc1ccc(Cl)c(C(F)(F)F)c1 | MY330/88 | broth dilution | - | - | MIC100 | 14 d | 125 µM
Cc1ccn2c(C(=O)NCc3ccc(N4CCN(c5ccc(OC(F)(F)F)cc5)[C@@H](C)C4)cc3)c(C)nc2c1 | - | fluorescence | 0.036 µM | - | inhibition | - | 85%
O[C@@H](c1cc(C(F)(F)F)nc2c(C(F)(F)F)cccc12)[C@H]1CCCCN1 | MAC 101 | broth dilution / radiometric | - | - | MIC90 | - | 64 µg/mL
Cc1cn2c(C(=O)NCc3ccc(N4CCC(c5ccc(OC(F)(F)F)cc5)CC4)cc3)c(C)nc2s1 | 101 | resazurin | - | - | MIC | - | <2 µM
CCS/C(N)=N\N=C\c1ccc(C(F)(F)F)cc1 | Clinical isolates | - | - | - | Geometric mean MIC | - | 8.78 µg/mL
Cc1cccc(C(N)=Nc2nc(-c3ccccn3)cc3ccccc23)c1 | 101 | - | - | - | MBC | - | 2 µg/mL
CO[C@H]1/C=C/O[C@@]2(C)Oc3c(C)c(O)c4c(O)c(c5c(c4c3C2=O)NC2(CCN(CC(C)C)CC2)N=5)=NC(=O)/C(C)=C\C=C\[C@H](C)[C@H](O)[C@@H](C)[C@@H](O)[C@@H](C)[C@H](OC(C)=O)[C@@H]1C | - | - | - | - | Median MIC | - | 1 µg/mL
COc1ccc(NC(=O)NNC(=O)c2ccncc2)cc1 | MY330/88 | broth dilution | - | - | MIC100 | 14 d | 32 µM
O=c1oc2ccc(F)cc2c(=O)n1-c1ccc(Br)cc1 | CNCTC MY330/88 | - | - | - | MIC | - | 8 µM
CCc1cn(C2OC(CO)CC2F)c(=O)[nH]c1=O | ATCC 25291 | resazurin | - | - | MIC25 | - | 100 µg/mL
CC1COc2c(N3CCN(C)CC3)c(F)cc3c(=O)c(C(=O)O)cn1c23 | ATCC 15769 | - | - | - | MIC50 | - | 50 µg/mL
OCNC(=S)c1cnccn1 | ATCC 25291 | - | - | - | MBC | - | 50 µg/mL
Cc1cn2c(C(=O)NCc3ccc(N4CCSCC4)c(F)c3)c(C)nc2s1 | 101 | resazurin | - | - | MIC | - | <2 µM
CC(C)(C)c1ccc(NC(=O)NNC(=O)c2ccncc2)cc1 | MY330/88 | broth dilution | - | - | MIC100 | 21 d | 125 µM
CC[C@H]1OC(=O)[C@H](C)[C@@H](O[C@H]2C[C@@](C)(OC)[C@@H](O)[C@H](C)O2)[C@H](C)[C@@H](O[C@@H]2O[C@H](C)C[C@H](N(C)C)[C@H]2O)[C@](C)(OC)C[C@@H](C)C(=O)[C@H](C)[C@@H](O)[C@]1(C)O | 3354 | - | - | - | MBC | - | 32 µg/mL
C=Cc1cn(COCCO)c(=O)[nH]c1=O | ATCC 25291 | - | - | - | EC50 | - | >100 µg/mL
O=C(NNC(=O)c1ccncc1)Nc1ccc(Br)c(C(F)(F)F)c1 | MY330/88 | broth dilution | - | - | MIC100 | 21 d | >125 µM
N/C(=N\NC(CC(=O)c1ccc(-c2ccccc2)cc1)c1cccnc1)c1ccccn1 | 17 strains | - | - | - | MIC50 | - | 80 µg/mL
O=C(NNC(=O)c1ccncc1)Nc1ccc(F)cc1Br | MY330/88 | broth dilution | - | - | MIC100 | 14 d | >125 µM
O[C@H](c1cc(C(F)(F)F)nc2c(C(F)(F)F)cccc12)[C@@H]1CCCCN1 | MAC 101 | broth dilution / radiometric | - | - | MIC50 | - | 16 µg/mL
N/C(=N\NC(CC(=O)c1ccc(Cl)cc1)c1ccncc1)c1ccccn1 | 17 strains | - | - | - | MIC90 | - | 32 µg/mL
NNC(=O)c1ccncc1 | MY330/88 | broth dilution | - | - | MIC100 | 14 d | >250 µM
O=c1[nH]c(=O)n([C@H]2C[C@H](O)[C@@H](CO)O2)cc1Br | ATCC 25291 | - | - | - | EC50 | - | >50 µg/mL
Cc1ccc(C(=O)CC(N/N=C(\N)c2ccccn2)c2ccncc2)cc1 | 17 strains | - | - | - | MIC50 | - | 160 µg/mL
O=c1[nH]c(=O)n([C@H]2C[C@H](O)[C@@H](CO)O2)cc1O | ATCC 25291 | - | 50 µg/mL | - | inhibition | - | 0%
CC1COc2c(C3(N)CC3)c(F)cc3c(=O)c(C(=O)O)cn1c23 | 18 strains | - | - | - | MIC50 | - | 50 µg/mL
CCc1nc2ccc(Cl)cn2c1C(=O)NCc1ccc(C2CCN(c3ccc(OCC(F)(F)F)nc3)CC2)cc1F.Cl | - | fluorescence | 0.03 µM | - | inhibition | - | 85%
CCOC(=O)c1c(-c2ccccc2)c2ccc(Cl)cc2oc1=O | ATCC 15769 | resazurin | - | - | MIC90 | - | >100 µg/mL
COc1ccc2c(=O)n(-c3ccc(C#N)cc3)c(=O)oc2c1 | CNCTC MY330/88 | - | - | - | MIC | - | 62.5 µM
NNC(=O)c1ccncc1 | 168-4 | - | - | - | MBC | - | 160 µg/mL
Cc1ccn2c(C(=O)NCc3ccc(N4CCC(NC(=O)OC(C)(C)C)CC4)c(F)c3)c(C)nc2c1 | 101 | resazurin | - | - | MIC | - | <2 µM
CC1COc2c(N3CCN(C)CC3)c(F)cc3c(=O)c(C(=O)O)cn1c23 | ATCC 25291 | - | - | - | Median MIC | - | 8 µg/mL
O=c1oc2ccc(F)cc2c(=O)n1-c1cccc(Cl)c1 | CNCTC MY330/88 | - | - | - | MIC | - | 16 µM
O=C(O)c1cn(C2CC2)c2cc(N3CCN(c4ccccc4)CC3)c(F)cc2c1=O | - | - | - | - | MIC50 | - | 4 µg/mL
NC[C@H]1O[C@H](O[C@H]2[C@H](O)[C@@H](O[C@H]3O[C@H](CO)[C@@H](O)[C@H](N)[C@H]3O)[C@H](N)C[C@@H]2N)[C@H](O)[C@@H](O)[C@@H]1O | 100 strains | - | - | - | MIC50 | - | 3.95 µg/mL
NC[C@H]1O[C@H](O[C@H]2[C@H](O)[C@@H](O[C@H]3O[C@H](CO)[C@@H](O)[C@H](N)[C@H]3O)[C@H](N)C[C@@H]2N)[C@H](O)[C@@H](O)[C@@H]1O | ATCC 25291 | - | - | - | Mean MIC | - | 3.13 µg/mL
O=c1[nH]c(=O)n([C@H]2C[C@H](O)[C@@H](CO)O2)cc1Cl | ATCC 25291 | - | 50 µg/mL | - | inhibition | - | 0%
N/C(=N\NC(CC(=O)c1cccc(Br)c1)c1cccnc1)c1ccccn1 | 17 strains | - | - | - | MIC50 | - | 80 µg/mL
Cc1ccc(-n2c(=O)oc3ccc(Br)cc3c2=O)cc1 | CNCTC MY330/88 | - | - | - | MIC | - | 31 µM
Nc1cn(COCCO)c(=O)[nH]c1=O | ATCC 25291 | - | - | - | EC50 | - | >100 µg/mL
O=c1oc2ccccc2c(=O)n1-c1cccc(Cl)c1 | CNCTC MY330/88 | - | - | - | MIC | - | 31 µM
CC[C@H]1OC(=O)[C@H](C)[C@@H](O[C@H]2C[C@@](C)(OC)[C@@H](O)[C@H](C)O2)[C@H](C)[C@@H](O[C@@H]2O[C@H](C)C[C@H](N(C)C)[C@H]2O)[C@](C)(O)C[C@@H](C)CN(C)[C@H](C)[C@@H](O)[C@]1(C)O | - | - | - | - | Median MIC | - | 8 µg/mL
CCCCCC#Cc1cn(COCCO)c(=O)[nH]c1=O | ATCC 25291 | - | - | - | EC50 | - | >100 µg/mL
Cc1cn2c(C(=O)NCc3ccc(N4CCN(c5ccc(C(F)(F)F)cn5)CC4)c(F)c3)c(C)nc2s1 | 104 | resazurin | - | Gentamicin-resistant | MIC | - | 0.3125 µg/mL
N/C(=N\NC(CC(=O)c1ccc(-c2ccccc2)cc1)c1ccccn1)c1ccccn1 | 17 strains | - | - | - | MIC90 | - | 160 µg/mL
Cc1cn(COCCO)c(=O)[nH]c1=O | ATCC 25291 | - | - | - | EC50 | - | >100 µg/mL
CCc1nc2cc(C)ccn2c1C(=O)NCc1ccc(Oc2cccc(C(F)(F)F)c2)cc1 | - | fluorescence | 0.59 µM | - | inhibition | - | 85%
CC(=O)OC[C@H]1O[C@@H](n2cc(/C=C/I)c(=O)[nH]c2=O)C[C@@H]1OC(C)=O | ATCC 25291 | - | - | - | EC50 | - | >50 µg/mL
Cc1ccn2c(C(=O)NCc3ccc(N4CCN(c5ccc(OC(F)(F)F)cc5)[C@@H](C)C4)c(F)c3)c(C(F)(F)F)nc2c1 | - | fluorescence | 0.045 µM | - | inhibition | - | 85%
CC[C@H]1OC(=O)[C@H](C)[C@@H](O[C@H]2C[C@@](C)(OC)[C@@H](O)[C@H](C)O2)[C@H](C)[C@@H](O[C@@H]2O[C@H](C)C[C@H](N(C)C)[C@H]2O)[C@](C)(OC)C[C@@H](C)C(=O)[C@H](C)[C@@H](O)[C@]1(C)O | MAC 101 | broth dilution / radiometric | - | - | MIC90 | - | 4 µg/mL
CCCCNC(=O)c1cc([N+](=O)[O-])cc([N+](=O)[O-])c1 | - | visual reading | - | - | MBC | - | 512 µg/mL
CCc1nc2cc(F)ccn2c1C(=O)NCc1ccc(OC2CC(Oc3ccc(OC(F)(F)F)cc3)C2)c(F)c1.Cl | - | fluorescence | 0.054 µM | - | inhibition | - | 85%
CC(=O)NC[C@H]1CN(c2ccc3c(c2)Oc2ccccc2O3)C(=O)O1 | - | broth dilution / visual reading | - | - | MIC90 | - | >64 µg/mL
CS(C)=O | 101 | resazurin | - | - | MIC | - | >1 µg/mL
Fc1cc(Br)ccc1Nc1nnc(-c2ccncc2)o1 | MY330/88 | broth dilution | - | - | MIC100 | 14 d | >125 µM
CCCN1CCN(c2cc3c(cc2F)c(=O)c(C(=O)O)cn3C2CC2)CC1 | - | - | - | - | MIC50 | - | 1 µg/mL

Again, the opening 8 rows:

| compound | strain or isolate | method | dose | mutations | measure | setting | value |
|---|---|---|---|---|---|---|---|
| N/C(=N\NC(CC(=O)c1ccc(Cl)cc1)c1cccnc1)c1ccccn1 | 17 strains | - | - | - | MIC50 | - | 32 µg/mL |
| O=C(NNC(=O)c1ccncc1)Nc1ccc(Cl)c(C(F)(F)F)c1 | MY330/88 | broth dilution | - | - | MIC100 | 14 d | 125 µM |
| Cc1ccn2c(C(=O)NCc3ccc(N4CCN(c5ccc(OC(F)(F)F)cc5)[C@@H](C)C4)cc3)c(C)nc2c1 | - | fluorescence | 0.036 µM | - | inhibition | - | 85% |
| O[C@@H](c1cc(C(F)(F)F)nc2c(C(F)(F)F)cccc12)[C@H]1CCCCN1 | MAC 101 | broth dilution / radiometric | - | - | MIC90 | - | 64 µg/mL |
| Cc1cn2c(C(=O)NCc3ccc(N4CCC(c5ccc(OC(F)(F)F)cc5)CC4)cc3)c(C)nc2s1 | 101 | resazurin | - | - | MIC | - | <2 µM |
| CCS/C(N)=N\N=C\c1ccc(C(F)(F)F)cc1 | Clinical isolates | - | - | - | Geometric mean MIC | - | 8.78 µg/mL |
| Cc1cccc(C(N)=Nc2nc(-c3ccccn3)cc3ccccc23)c1 | 101 | - | - | - | MBC | - | 2 µg/mL |
| CO[C@H]1/C=C/O[C@@]2(C)Oc3c(C)c(O)c4c(O)c(c5c(c4c3C2=O)NC2(CCN(CC(C)C)CC2)N=5)=NC(=O)/C(C)=C\C=C\[C@H](C)[C@H](O)[C@@H](C)[C@@H](O)[C@@H](C)[C@H](OC(C)=O)[C@@H]1C | - | - | - | - | Median MIC | - | 1 µg/mL |